Source: patent publication US20140302123A1, “Products useful for the treatment of malignant neoplasms of the human nervous system” (published 2014)

T1: PTPN4-PDZ (residues G499-N604) (human), P29074
T1 chain: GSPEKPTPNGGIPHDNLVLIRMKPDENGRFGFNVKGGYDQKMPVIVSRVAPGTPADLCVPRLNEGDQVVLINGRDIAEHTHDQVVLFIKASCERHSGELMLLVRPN


How the values were obtained:
[1] = biological target: T1, PTPN4-PDZ (residues G499-N604) (human), …
[2] = biological target: T1, PTPN4-PDZ (residues G499-N604) (human), …; assay: NMR titration, 15N-labeled PTPN4-PDZ with unlabeled peptide
[3] = biological target: T1, PTPN4-PDZ (residues G499-N604) (human), …; assay: NMR titration
[4] = biological target: T1, PTPN4-PDZ (residues G499-N604) (human), …; assay: ITC titration

Binder	Kd [2] [nM]	Kd [4] [nM]	further results
SWESHKSGGQTRL [Cyto13-vir]			fold difference in Kd against Cyto13-att [1]: 4 fold
SWESHKSGGESDV (modifications not checked) [Cyto9-ESDV]	85000		
SWESHKSGRETEV (modifications not checked) [Cyto8-RETEV]	1000		fold increase in affinity against Cyto13-att [3]: 160 fold; fold increase in affinity against GluN2A-16 [3]: 40 fold
SWERRETEV (modifications not checked) [… (SEQ ID NO: 5)]		2000	
SWYERETEV (modifications not checked) [… (SEQ ID NO: 2)]		1090	
